Assay results: patent publication US10513539B2, “Hydrophobic modified peptides and their use for liver specific targeting” (Ruprecht-Karls-Universitat Heidelberg, priority 2011, dated 2019)
Read-outs that look alike come from different tables or passages of the source.

Conditions: for radiation in the intestines and the bladder (PET summary image): 6 h post injection (FIG. 8D)
[1] = 40-60 minutes post injection (FIG. 8C)

Myristoyl-[K-Levofloxacin]-NLSTSNPLGFFPDHQLDPy (SEQ ID NO:21)-^131I [HBVpreS/myr-[K-Levofloxacin]3-20y-^131I]
radiation found in the liver (PET summary image) (0-20 minutes post injection (FIG. 8A)): ~100% | radiation found in the liver (PET summary image) (20-40 minutes post injection (FIG. 8B)): ~100% | enrichment in the intestine and bladder (PET summary image) [1]: mild enrichment | radiation found in the liver (PET summary image) [1]: Most of the radiation is found in the liver | radiation in the intestines and the bladder (PET summary image): clear accumulation | radiation in the intestines and the bladder (PET summary image) (listed as HBVpreS/myr-[K-Levofloxacin]3-20y-131I): traces of radioactivity | liver specificity (overall conclusion of the PET experiments) (WAG/RJ rats): enrich specifically in the liver | radiation found in the liver (PET summary image) (measured for 10 minutes 6 h post injection (FIG. 8D)): Most of the radiation is still found in the liver
